PubChem BioAssay AID504761, Drosophila RNAi Screening Center – 2011
Test: 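Insect host genes that dengue virus relies on to spread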 (primary screen). Cell system: D.Mel-2 cells from Drosophila. Reagent: long dsRNA against Drosophila genes. Conditions: infection with dengue virus type 2; dose and infection time not stated. Measured: 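Cells stained for dengue envelope protein and imaged; percent of infected cells per well on duplicate plates, ranked by infection, with stained nuclei counted for cell number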. Direction: infection score: higher = more virus-infected cells; cell count: higher = more cells in the well. Hit rule: 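Very low infection ranking in both replicate wells (chance probability at most 0.065), then a retest showing infection dropped 1.5-fold or more at p below 0.05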. Calls: active = confirmed: knock-down lowers infection; inactive = not picked or not confirmed.
The deposit covers about 22,000 reagents; below is an unselected part of those that have a named target and a result. Of all reagents, 116 (0.52%) are marked active. 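Calls depend on retest data that are not deposited; infection was ranked per plate without normalising between plates; the unit of the infection score is not given.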 Raw values are not corrected between plates. The numbers tell different reagents against one gene apart. A plus sign joins genes that one reagent is predicted to hit. Reagent sequences are not shown. The record does not give: the amount of reagent, the time to read-out.

predicted target | dsRNA no. | infection score, replicate 1 | infection score, replicate 2 | cell count, replicate 1 | cell count, replicate 2 | Outcome
ND6 (retired record) | 1 | 1.86 | 2.52 | 6491 | 7220 | inactive
Galphai | 1 | 9.78 | 7.67 | 1432 | 4420 | inactive
Galphai | 2 | 11.4 | 3.65 | 3144 | 1370 | inactive
mkg-p + Tpt | 1 | 4.81 | 9.5 | 6365 | 5504 | inactive
CG13613 | 1 | 4.18 | 5.14 | 6025 | 7022 | inactive
Ddrgk1 | 1 | 3.53 | 2.91 | 6096 | 6079 | inactive
Ddrgk1 | 2 | 5.12 | 17.5 | 6723 | 6323 | inactive
CG3430 | 1 | 19.2 | 20.6 | 5440 | 4115 | inactive
dah | 1 | 3.84 | 4.21 | 6481 | 6127 | inactive
CG10494 | 1 | 8.78 | 25.6 | 6752 | 6061 | inactive
CG10494 | 2 | 12.7 | 12.3 | 5486 | 6025 | inactive
velo | 1 | 1.28 | 0.33 | 3293 | 2754 | inactive
velo | 2 | 3.41 | 12 | 3524 | 2483 | inactive
velo | 3 | 4.46 | 8.8 | 4399 | 4089 | inactive
CG46491 | 1 | 6.62 | 3.85 | 7373 | 6785 | inactive
CG46491 | 2 | 5.07 | 4.19 | 6168 | 6711 | inactive
Bcs1 | 1 | 1.41 | 0.46 | 6899 | 6956 | inactive
CG11771 | 1 | 9.29 | 5.61 | 5794 | 6417 | inactive
CG11771 | 2 | 3.09 | 18.2 | 6474 | 5937 | inactive
l(2)SH0834 | 1 | 6.43 | 3.05 | 6328 | 6466 | inactive
Pex3 | 1 | 5.91 | 6.35 | 1744 | 1055 | inactive
dnr1 | 1 | 2.69 | 1.55 | 6691 | 6527 | inactive
dnr1 | 2 | 24.1 | 15.7 | 6297 | 4955 | inactive
dnr1 | 3 | 15.8 | 10.5 | 5055 | 6099 | inactive
lin-28 | 1 | 1.75 | 5.71 | 5782 | 5885 | inactive
Nfs1 | 1 | 21.3 | 16.9 | 5994 | 6328 | inactive
fal | 1 | 9.07 | 16.3 | 6649 | 5933 | inactive
CG12594 | 1 | 2.24 | 16.1 | 6618 | 6187 | inactive
CG12594 | 2 | 4.83 | 4.96 | 6422 | 5869 | inactive
CG11635 + spaw | 1 | 2.11 | 13.1 | 6259 | 6728 | inactive
CCT8 | 1 | 15.2 | 5.83 | 2987 | 4031 | inactive
CCT8 | 2 | 15.4 | 8.86 | 3553 | 3453 | inactive
RpL7A | 1 | 3.15 | 2.13 | 1237 | 1267 | inactive
RpL7A | 2 | 3.47 | 6.68 | 749 | 659 | inactive
Ogdh | 1 | 2.57 | 9.59 | 6966 | 6599 | inactive
Ogdh | 2 | 5.26 | 3.53 | 6257 | 6115 | inactive
CG3213 | 1 | 4.6 | 12.7 | 5390 | 4951 | inactive
CG3213 | 2 | 2.96 | 2.58 | 6851 | 5891 | inactive
nop5 | 1 | 3.38 | 6.55 | 5356 | 5051 | inactive
Ada2a | 1 | 1.78 | 7.01 | 6693 | 6875 | inactive
Ada2a | 2 | 39 | 25.5 | 6672 | 3869 | inactive
CG10681 | 1 | 12 | 9.44 | 6533 | 6517 | inactive
CG10681 | 2 | 1.03 | 1.5 | 5755 | 5816 | inactive
CG10681 | 3 | 20.8 | 12.2 | 6414 | 6287 | inactive
Scr | 1 | 1.08 | 5.36 | 6850 | 7206 | inactive
Scr | 2 | 11.7 | 14.8 | 4157 | 3231 | inactive
beat-IIb | 1 | 6.59 | 5.84 | 5444 | 5271 | inactive
beat-IIb | 2 | 1.49 | 14.6 | 6315 | 6358 | inactive
beat-IIb | 3 | 20.4 | 33.3 | 7150 | 5470 | inactive
CG7139 | 1 | – | 14.7 | 151 | 6287 | inactive
CG7139 | 2 | 8.99 | 8.03 | 6326 | 6776 | inactive
CG5863 | 1 | – | 3.81 | 325 | 1024 | inactive
CG13185 | 1 | 20.7 | 19.5 | 5019 | 5124 | inactive
CR30409 | 1 | 5.75 | 4.28 | 6709 | 6807 | inactive
CG14958 | 1 | 0.38 | 1.44 | 5855 | 5979 | inactive
Rpn1 | 1 | 2.15 | 0.71 | 839 | 1119 | inactive
CG5614 | 1 | 12.3 | 9.53 | 5817 | 6277 | inactive
CG1513 | 1 | 0.16 | 1.43 | 5802 | 5330 | inactive
CG1513 | 2 | 5.09 | 8.04 | 6284 | 5063 | inactive
CG1513 | 3 | 4.4 | 6.96 | 6480 | 6510 | inactive

Targets above whose gene name starts with O or o:
predicted target | dsRNA no. | infection score, replicate 1 | infection score, replicate 2 | cell count, replicate 1 | cell count, replicate 2 | Outcome
Ogdh | 1 | 2.57 | 9.59 | 6966 | 6599 | inactive
Ogdh | 2 | 5.26 | 3.53 | 6257 | 6115 | inactive
